According to patent US20250276070A1:

What follows are substances tested against His-tagged MPER peptide (HIV-1) (assay: BLI, His-tagged target on Ni-NTA).
With T-01 MB IgG1 LALAP I253A the Kd was less than 1 pM, the koff was less than 1e-07 s⁻¹ and the kon was 225000 M⁻¹ s⁻¹. Work on T-01 MB.v2 IgG1 M428L N434S (LS) yielded a Kd of less than 1 pM, a koff of less than 1e-07 s⁻¹ and a kon of 180000 M⁻¹ s⁻¹. With T-01 MB IgG1 I253A the Kd was less than 1 pM, the koff was less than 1e-07 s⁻¹ and the kon was 421000 M⁻¹ s⁻¹.
